Measured values from PMC9734377 (Communications Biology, 2022).

Test system: NC(=O)c1ccc[n+]([C@@H]2O[C@H](COP(=O)(O)OP(=O)(O)OC[C@H]3O[C@@H](n4cnc5c(N)ncnc54)[C@H](OP(=O)(O)O)[C@@H]3O)[C@@H](O)[C@H]2O)c1
Experiment: purified protein
Details: 800 µM G6P, 50 mM Tris pH 7.5, 3.3 mM MgCl2, 25 °C, fraction assayed not told, crystals from dimer fraction, crystal ligand given as NADP(H), redox state open

Which Km does the source give for “LdG6PD wt dimer (LdG6PD^Dimer) (Leishmania donovani; C138S)” here?
Its Km is 14.6 ± 1.6 µM.

What about the Vmax of the same substance?
The Vmax was 225 µmol/min/mg.

What about the kcat of the same substance?
Its kcat is 250 s⁻¹.

And the kcat/Km?
The kcat/Km was 1.73e+07 M⁻¹ s⁻¹.
